Data as given in PubChem BioAssay AID1259414 (Drosophila RNAi Screening Center, 2018)

Test: 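Host factors increasing or decreasing Wolbachia levels in cultured fly cells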 (primary screen)
System: Drosophila JW18 cells infected with Wolbachia
Reagent: long dsRNA against Drosophila genes, 0.25 µg dsRNA per well of a 384-well plate
Timing: 5 days
Conditions: cells persistently infected with Wolbachia before knock-down; no added drug
Read-out: 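Imaged fluorescence in situ signal for Wolbachia 23S rRNA per DAPI-counted host cell, given as a robust z-score within each plate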
Scale: Wolbachia per cell robust z: higher = more Wolbachia per host cell than the plate typical
Hit rule: 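Active if absolute robust z reaches 1.5 in two or more of three replicates, leaving out multi- or no-target dsRNAs, genes unexpressed in JW18 and A1 wells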
In all, the deposit lists about 24,000 reagents; this is an unselected part of those that have a named target and a result. Of all reagents, about 1,210 (5%) got an active call. 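Inactive calls also include excluded dsRNAs with several or no targets, genes unexpressed in JW18, and well A1, regardless of score.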 The numbers tell different reagents against one gene apart. Names joined by + are all predicted targets of the reagent.

CG11327 #1
- Wolbachia per cell robust z, rep 1: 0.0549
- Wolbachia per cell robust z, rep 2: -0.00158
- Wolbachia per cell robust z, rep 3: 0.201
- call: inactive

CG11327 #2
- Wolbachia per cell robust z, rep 1: -0.819
- Wolbachia per cell robust z, rep 2: -0.148
- Wolbachia per cell robust z, rep 3: -2.49
- call: inactive

Ufsp1 (UFM1 specific peptidase 1) #1
- Wolbachia per cell robust z, rep 1: 0.795
- Wolbachia per cell robust z, rep 2: -0.0607
- Wolbachia per cell robust z, rep 3: 0.131
- call: inactive

Ufsp1 (UFM1 specific peptidase 1) #2
- Wolbachia per cell robust z, rep 1: 1.05
- Wolbachia per cell robust z, rep 2: 0.588
- Wolbachia per cell robust z, rep 3: 0.563
- call: inactive

LysD + LysC #1
- Wolbachia per cell robust z, rep 1: 0.0666
- Wolbachia per cell robust z, rep 2: -0.932
- Wolbachia per cell robust z, rep 3: -0.642
- call: inactive

LysD + LysC #2
- Wolbachia per cell robust z, rep 1: 0.195
- Wolbachia per cell robust z, rep 2: 0.542
- Wolbachia per cell robust z, rep 3: 1.21
- call: inactive

CG4287 #1
- Wolbachia per cell robust z, rep 1: 0.463
- Wolbachia per cell robust z, rep 2: 0.282
- Wolbachia per cell robust z, rep 3: 0.149
- call: inactive

CG4287 #2
- Wolbachia per cell robust z, rep 1: -1.23
- Wolbachia per cell robust z, rep 2: -9.43
- Wolbachia per cell robust z, rep 3: -0.348
- call: inactive

CG5776 #1
- Wolbachia per cell robust z, rep 1: -0.423
- Wolbachia per cell robust z, rep 2: -0.736
- Wolbachia per cell robust z, rep 3: -1.16
- call: inactive

CG5776 #2
- Wolbachia per cell robust z, rep 1: -0.919
- Wolbachia per cell robust z, rep 2: 0.473
- Wolbachia per cell robust z, rep 3: 1.01
- call: inactive

CG11125
- Wolbachia per cell robust z, rep 1: -0.287
- Wolbachia per cell robust z, rep 2: 0.089
- Wolbachia per cell robust z, rep 3: 0.264
- call: inactive

Klc (Kinesin light chain) #1
- Wolbachia per cell robust z, rep 1: -9.13
- Wolbachia per cell robust z, rep 2: -4.23
- Wolbachia per cell robust z, rep 3: -1.09
- call: active

Klc (Kinesin light chain) #2
- Wolbachia per cell robust z, rep 1: -0.825
- Wolbachia per cell robust z, rep 2: -0.375
- Wolbachia per cell robust z, rep 3: -0.89
- call: inactive

qkr58E-1 (quaking related 58E-1) #1
- Wolbachia per cell robust z, rep 1: -0.321
- Wolbachia per cell robust z, rep 2: 0.51
- Wolbachia per cell robust z, rep 3: -0.527
- call: inactive

qkr58E-1 (quaking related 58E-1) #2
- Wolbachia per cell robust z, rep 1: -0.831
- Wolbachia per cell robust z, rep 2: -0.309
- Wolbachia per cell robust z, rep 3: -0.996
- call: inactive

CG7131 #1
- Wolbachia per cell robust z, rep 1: -2.36
- Wolbachia per cell robust z, rep 2: -0.451
- Wolbachia per cell robust z, rep 3: -0.238
- call: inactive

CG7131 #2
- Wolbachia per cell robust z, rep 1: 0.924
- Wolbachia per cell robust z, rep 2: 0.314
- Wolbachia per cell robust z, rep 3: 0.727
- call: inactive

CG7889 #1
- Wolbachia per cell robust z, rep 1: -0.105
- Wolbachia per cell robust z, rep 2: 0.514
- Wolbachia per cell robust z, rep 3: -0.27
- call: inactive

CG7889 #2
- Wolbachia per cell robust z, rep 1: 0.0651
- Wolbachia per cell robust z, rep 2: -0.437
- Wolbachia per cell robust z, rep 3: -3.57
- call: inactive

laza (lazaro) #1
- Wolbachia per cell robust z, rep 1: -2.06
- Wolbachia per cell robust z, rep 2: -2.82
- Wolbachia per cell robust z, rep 3: 1.53
- call: inactive

laza (lazaro) #2
- Wolbachia per cell robust z, rep 1: -0.627
- Wolbachia per cell robust z, rep 2: 0.325
- Wolbachia per cell robust z, rep 3: 0.219
- call: inactive

laza (lazaro) #3
- Wolbachia per cell robust z, rep 1: -3.37
- Wolbachia per cell robust z, rep 2: -0.598
- Wolbachia per cell robust z, rep 3: -2.68
- call: inactive

laza (lazaro) #4
- Wolbachia per cell robust z, rep 1: -0.19
- Wolbachia per cell robust z, rep 2: 0.0254
- Wolbachia per cell robust z, rep 3: -1.79
- call: inactive

PIG-H + Kmn2
- Wolbachia per cell robust z, rep 1: 0.919
- Wolbachia per cell robust z, rep 2: 0.197
- Wolbachia per cell robust z, rep 3: 0.881
- call: inactive
